Anti-infective test results gathered from many reports (values: NIAID ChemDB through PubChem).

Common to all: host cell toxicity; cell line: CEM; measure: CC50

CCn is the concentration with n% toxicity to the cells.

{"smiles": "O=C(/C=C(\\O)c1ccccc1)c1ccc2ccc(C(=O)O)c(O)c2n1", "method": "MTT", "result": ">100 µM"}
{"smiles": "Nc1ccn([C@@H]2C=C(F)[C@H](CO)S2)c(=O)n1", "method": "MTT", "result": ">100 µM"}
{"smiles": "O=C(NC1CC1)c1ccc(B(O)O)cc1", "method": "MTT", "result": ">250 µM"}
{"smiles": "Nc1nc2c(ncn2COC(CO)CO)c(=O)[nH]1", "method": "XTT", "result": ">10 µM"}
{"smiles": "O=C(Nc1ccc(O)c(O)c1)Nc1ccc2ccc(C(=O)O)c(O)c2n1", "method": "MTT", "result": "70 µM"}
{"smiles": "CCCCCCCOCCCCCC(=O)O", "result": "128 µM"}
{"smiles": "Cc1cn([C@H]2C[C@H](F)[C@@H](CO)O2)c(=O)[nH]c1=O", "result": "0.58 µg/mL"}
{"smiles": "CO[C@H]1N([C@H]2C[C@H](F)[C@@H](CO)O2)C(=O)NC(=O)[C@@]1(C)Cl", "result": ">800 µM"}
{"smiles": "O=C(O)/C=C/c1ccc(O)c(O)c1", "method": "cell count", "result": "100 µg/mL"}
{"smiles": "CCc1cc(NCc2nc3c(C)ccc(C)c3o2)c(=O)[nH]c1C", "result": ">60 µM"}
{"smiles": "Nc1ncnc2c1ncn2[C@H]1C=C(F)[C@@H](CO)S1", "method": "MTT", "result": ">100 µM"}
{"smiles": "O=C(Nc1ccc2ccc(C(=O)O)c(O)c2n1)c1ccccc1", "method": "MTT", "result": ">100 µM"}
{"smiles": "CC(C)(C)[Si](C)(C)OCC1OC(n2nncc2C(=O)NC2CCCC2)C(O[Si](C)(C)C(C)(C)C)C12OS(=O)(=O)C=C2N", "result": "≥250 µM"}
{"smiles": "O=C(NCc1cc(O)cc(O)c1)c1ccc2ccc(C(=O)O)c(O)c2n1", "method": "MTT", "result": ">100 µM"}
{"smiles": "Cc1cc(C=O)cc2c1OP(=O)(OC[C@@H]1C=C[C@H](n3cc(C)c(=O)[nH]c3=O)O1)OC2", "result": "86 µM"}
{"smiles": "Cc1cc(S(=O)(=O)Nc2nnc3cc(C(F)(F)F)cc(C)n23)c(S)cc1Cl", "result": ">200 µM"}
{"smiles": "COc1ccc(B(O)O)cc1C=O", "method": "MTT", "result": "24 µM"}
{"smiles": "CCNC(=O)c1cnnn1C1OC(CO[Si](C)(C)C(C)(C)C)C2(OS(=O)(=O)C=C2N)C1O[Si](C)(C)C(C)(C)C", "result": "≥250 µM"}
{"smiles": "COc1ccc(CNC(=O)Nc2ccc3ccc(C(=O)O)c(O)c3n2)cc1", "method": "MTT", "result": ">100 µM"}
{"smiles": "CC(=O)c1c(NCc2cccc3ccccc23)cc(C)oc1=O", "method": "MTT", "result": ">250 µM"}
{"smiles": "Cc1cc(S(=O)(=O)Nc2nc(Nc3ccccc3)nn2C)c(S)cc1Cl", "result": "149 µM"}
{"smiles": "CCc1c(NCc2cccc3ccccc23)cc(C)oc1=O", "method": "MTT", "result": "41 µM"}
{"smiles": "O=CN(CCC(=O)O)c1ccc(B(O)O)cc1", "method": "MTT", "result": ">250 µM"}
{"smiles": "Nc1ncnc2c1ncn2[C@H]1CC[C@@H](CO)O1", "result": ">100 µM"}
{"smiles": "Nc1nc2c(ncn2[C@@H]2C=C(F)[C@H](CO)S2)c(=O)[nH]1", "method": "MTT", "result": ">100 µM"}
{"smiles": "CCCCCOCCCCCCCC(=O)O", "result": "68 µM"}
{"smiles": "O=c1ccn([C@@H]2C=C(F)[C@H](CO)S2)c(=O)[nH]1", "method": "MTT", "result": ">100 µM"}
{"smiles": "Cc1cn([C@H]2C[C@H](N=[N+]=[N-])[C@@H](CO)O2)c(=O)[nH]c1=O", "method": "XTT", "result": "4.5 µM"}
{"smiles": "Cc1cn([C@H]2C[C@H](N=[N+]=[N-])[C@@H](COP(=O)(OCCC#N)OC[C@@H]3CC[C@H](n4cnc5c(N)ncnc54)O3)O2)c(=O)[nH]c1=O", "result": "130.5 µM"}
{"smiles": "Nc1ncc(C2C=CC(CO)(CO)C2)c(=O)[nH]1", "method": "XTT", "result": "99 µM"}
{"smiles": "CCCCCCCCCCCCOC(CNC(=O)CCCCCCCCCCC)COP(=O)([O-])OCC[N+](C)(C)C", "result": "30.3 µM"}
{"smiles": "CC(COCP(=O)(O)O)n1cnc2c(=O)[nH]c(N)nc21", "result": ">100 µg/mL"}
{"smiles": "CCCCCCCCCCCC(=O)NCC(COP(=O)([O-])OCC[N+](C)(C)C)OCCCCCCCCCC", "result": "27.6 µM"}
{"smiles": "CC(C)NCC(O)c1ccc(O)c(O)c1", "method": "cell count", "result": ">100 µg/mL"}
{"smiles": "CC(C)NC(=O)c1cnnn1C1OC(CO[Si](C)(C)C(C)(C)C)C2(OS(=O)(=O)C=C2N)C1O[Si](C)(C)C(C)(C)C", "result": ">250 µM"}
{"smiles": "CCc1c(SCc2cccc3ccccc23)cc(C)oc1=O", "method": "MTT", "result": "77 µM"}
{"smiles": "Nc1ccn([C@H]2CC[C@@H](CO)O2)c(=O)n1", "result": "6 µM"}
{"smiles": "Cc1cc(S(=O)(=O)Nc2nc(N)nc(N(C)C)n2)c(SC(C(=O)O)c2ccccc2)cc1Cl", "result": ">200 µM"}
{"smiles": "CCCCCCCCCC(=O)NCC(COP(=O)([O-])OCC[N+](C)(C)C)OCCCCCCCC", "result": ">100 µM"}
{"smiles": "CCCCOCCCCCCCCC(=O)O", "result": "228 µM"}
{"smiles": "CCCCCCCCCCCCOC(CNC(=O)CCCCCCCCC)COP(=O)([O-])OCC[N+](C)(C)C", "result": "38.9 µM"}
{"smiles": "CC(C)(C)C(=O)OCOP(=O)(COCCn1cnc2c(N)ncnc21)OCOC(=O)C(C)(C)C", "result": "1.4 µM"}
{"smiles": "O=Cc1ccccc1B(O)O", "method": "MTT", "result": "91 µM"}
{"smiles": "CC1=NN(c2nc(N)nc(NS(=O)(=O)c3cc(C)c(Cl)cc3S)n2)C(C)(C)C1", "result": ">200 µM"}
{"smiles": "CCN(CC)C(=O)c1ccc(B(O)O)cc1", "method": "MTT", "result": ">250 µM"}
{"smiles": "CO[C@H]1N([C@H]2C[C@H](F)[C@@H](CO)O2)C(=O)NC(=O)[C@]1(C)I", "result": "57.3 µM"}
{"smiles": "Nc1nc2c(ncn2CCCOCP(=O)(O)O)c(=O)[nH]1", "result": ">100 µg/mL"}
{"smiles": "O=c1[nH]cnc2c1ncn2[C@H]1C=C(F)[C@@H](CO)S1", "method": "MTT", "result": ">100 µM"}
{"smiles": "CCCOCCCCCCCCCC(=O)O", "result": "116 µM"}
{"smiles": "Cc1ccc(Nc2nc(NS(=O)(=O)c3cc(C(=O)Nc4ccc(Cl)cc4)c(Cl)cc3S)n[nH]2)cc1", "result": ">200 µM"}
{"smiles": "CO[C@@H]1N([C@H]2C[C@H](F)[C@@H](CO)O2)C(=O)NC(=O)[C@@]1(C)I", "result": "12.2 µM"}
{"smiles": "CCOCCCCCCCCCCC(=O)O", "result": "64 µM"}
{"smiles": "Cc1cc(SC2=C(O)CC(C)(CCc3ccc(O)cc3)OC2=O)c(C(C)(C)C)cc1OS(=O)(=O)c1cn(C)cn1", "result": ">100 µM"}
{"smiles": "OCc1ccccc1B(O)O", "method": "MTT", "result": "148 µM"}
{"smiles": "Nc1nc2c(ncn2[C@H]2C=C(F)[C@@H](CO)S2)c(=O)[nH]1", "method": "MTT", "result": ">100 µM"}
{"smiles": "Cc1cn([C@H]2C[C@H](N=[N+]=[N-])[C@@H](COP(=O)(O)OC[C@@H]3CC[C@H](n4cnc5c(=O)[nH]cnc54)O3)O2)c(=O)[nH]c1=O", "result": ">100 µM"}
{"smiles": "O=c1ccn([C@H]2C=C(F)[C@@H](CO)S2)c(=O)[nH]1", "method": "MTT", "result": ">100 µM"}
{"smiles": "Cc1cn([C@H]2C[C@H](F)[C@@H](CO)O2)c(=S)[nH]c1=O", "result": ">200 µM"}
{"smiles": "Nc1nc(NC2CC2)c2ncn([C@H]3C=C[C@@H](CO)C3)c2n1", "result": "160 µM"}
{"smiles": "OB(O)c1ccccc1/C=N/NC(=S)Nc1ccccc1", "method": "MTT", "result": "111 µM"}
{"smiles": "Cc1cc(S(=O)(=O)/N=C(/NN)NNc2cccc(C(F)(F)F)n2)c(S)cc1Cl", "result": "54 µM"}
{"smiles": "Nc1nc(=O)n([C@@H]2CC[C@H](CO)O2)cc1F", "result": "24 µM"}
{"smiles": "Cc1cn([C@H]2C[C@H](N=[N+]=[N-])[C@@H](CO)O2)c(=O)[nH]c1=O", "result": ">100 µM"}
{"smiles": "COc1cccc(O)c1O", "method": "cell count", "result": ">100 µg/mL"}
{"smiles": "Nc1nc(=O)n([C@@H]2O[C@H](CO)C[C@H]2F)cc1F", "result": ">100 µM"}
{"smiles": "Cc1cn([C@H]2C[C@H](F)[C@@H](CO)O2)c(=O)[nH]c1=O", "result": "54 µM"}
{"smiles": "Cc1cn([C@H]2C[C@H](F)[C@@H](CP(=O)(O)O)O2)c(=S)[nH]c1=O", "result": ">200 µM"}
{"smiles": "Cc1cc(NCc2cccc3ccccc23)cc(=O)o1", "method": "MTT", "result": "175 µM"}
{"smiles": "CO[C@H]1N([C@H]2C[C@H](F)[C@@H](CO)O2)C(=O)NC(=O)[C@]1(C)Cl", "result": ">800 µM"}
{"smiles": "Cc1cc(N[C@H](C)c2cccc3ccccc23)c(C(=O)C(Cl)Cl)c(=O)o1", "method": "MTT", "result": "6.5 µM"}
{"smiles": "O=Cc1ccc(B(O)O)cc1", "method": "MTT", "result": "120 µM"}
{"smiles": "Cc1cc(S(=O)(=O)Nc2nc(N)nc(N3CCOCC3)n2)c(S)cc1Cl", "result": ">200 µM"}
{"smiles": "Cc1cn([C@H]2C=C[C@@H](COP3(=O)OCc4cc(C=O)ccc4O3)O2)c(=O)[nH]c1=O", "result": "113 µM"}

For reference, 11 entries again:

CCc1cc(NCc2nc3c(C)ccc(C)c3o2)c(=O)[nH]c1C ; result: >60 µM
CCCCCCCCCCCCOC(CNC(=O)CCCCCCCCCCC)COP(=O)([O-])OCC[N+](C)(C)C ; result: 30.3 µM
CCOCCCCCCCCCCC(=O)O ; result: 64 µM
OCc1ccccc1B(O)O ; method: MTT ; result: 148 µM
Nc1nc(=O)n([C@@H]2CC[C@H](CO)O2)cc1F ; result: 24 µM
Nc1nc2c(ncn2COC(CO)CO)c(=O)[nH]1 ; method: XTT ; result: >10 µM
Cc1cn([C@H]2C=C[C@@H](COP3(=O)OCc4cc(C=O)ccc4O3)O2)c(=O)[nH]c1=O ; result: 113 µM
Nc1ccn([C@@H]2C=C(F)[C@H](CO)S2)c(=O)n1 ; method: MTT ; result: >100 µM
O=CN(CCC(=O)O)c1ccc(B(O)O)cc1 ; method: MTT ; result: >250 µM
CCc1c(NCc2cccc3ccccc23)cc(C)oc1=O ; method: MTT ; result: 41 µM
Cc1cc(S(=O)(=O)Nc2nc(N)nc(N3CCOCC3)n2)c(S)cc1Cl ; result: >200 µM

Rows are shuffled and stem from different studies.